Pooled drug test results. Numbers come from NIAID ChemDB, via PubChem.

All rows: tests in culture; organism: HIV-1; method: cytopathic effect / MTT; endpoint: EC50

Neighbouring rows are from separate reports. ECn: concentration that inhibits the pathogen or its effect by n%. An empty or dashed field is not shown.

COC(=O)CNC(=O)CNC(=O)COc1ccc2ccccc2c1 ; strain or isolate: IIIB ; cells: MT-4 ; value: >100 µg/mL
O=c1cc(Cc2c(F)cccc2F)nc(NC2CCCC2)[nH]1 ; mutations: RT-Y181C ; cells: MT-4 ; value: 2.1 µM
Cc1cccc(S(=O)(=O)c2c(C(=O)NNCCO)[nH]c3ccc(Cl)cc23)c1 ; mutations: RT-Y181C ; cells: MT-4 ; value: 0.05 µM
CC(C)(C)NC(=O)[C@@H]1CN(Cc2cccnc2)CCN1C[C@H](C[C@@H](Cc1ccccc1)C(=O)N[C@H]1c2ccccc2C[C@H]1OC(=O)CCCCO[C@H]1O[C@H](CO)[C@@H](O)[C@H](O)[C@@H]1O)OC(=O)CCCCO[C@H]1O[C@H](CO)[C@@H](O)[C@H](O)[C@@H]1O ; strain or isolate: IIIB ; cells: MT-4 ; value: 2.233 µM
Cc1cn(C=C2C[C@H]2CO)c(=O)[nH]c1=O ; strain or isolate: LAI ; cells: MT-2 ; value: >100 µM
CCCc1cc(=O)oc2c3c(c4c(c12)OC(C)(C)C=C4)O[C@@H](C)[C@H](C)C3=O ; strain or isolate: IIIB ; cells: CEM + CEM-SS ; value: 2.47 µM
CC(C)[C@@H](C(=O)N[C@@H](Cc1ccccc1)C[C@H](O)[C@H](Cc1ccccc1)NC(=O)OCc1cncs1)N1CCCNC1=O ; cells: MT-4 ; value: 0.015 µM
Cc1cc(C)cc(S(=O)(=O)c2c(C(N)=O)[nH]c3ccc(Cl)cc23)c1 ; strain or isolate: IIIB ; cells: MT-4 ; value: 0.006 µM
O=C1NC(=O)C(=Cc2cc(O)c(O)c(O)c2)C(=O)N1 ; cells: MT-4 ; value: >50 µM
CC1(C)C2=CC(=O)C(O)(c3ccccc3)C(=O)N2c2ccc(Cl)cc21 ; strain or isolate: RF ; value: 0.59 µM
Nc1ccn([C@H]2CC[C@@H](CO)O2)c(=O)n1 ; strain or isolate: BRU ; conditions: 7 d ; cells: CEM-C113 + CEM/C113 ; value: <0.2 µM
O=C1NC(=S)NC(=O)C1=Cc1cc(O)c(O)c(O)c1 ; cells: MT-4 ; value: 20 µM
CCCc1cc(=O)oc2c3c(c4c(c12)OC(C)(C)C=C4)O[C@H](C)C(C)(C)C3=O ; strain or isolate: IIIB ; cells: CEM + CEM-SS ; value: >19.3 µM
CC(C)c1c(CO)cn(Cc2ccccn2)c1Sc1cc(Cl)cc(Cl)c1 ; strain or isolate: IIIB ; cells: MT-4 ; value: 3 µM
Cc1cn([C@H]2C[C@H](N=[N+]=[N-])[C@@H](COP(=O)(O)OC[C@H]3O[C@@H](OCCO)[C@@H](O)[C@@H](O)[C@@H]3O)O2)c(=O)[nH]c1=O ; strain or isolate: BRU ; conditions: 7 d ; cells: CEM-C113 + CEM/C113 ; value: <0.2 µM
O=C1/C(=C/c2ccc([N+](=O)[O-])c(O)c2)CNC/C1=C\c1ccc([N+](=O)[O-])c(O)c1 ; cells: MT-4 ; value: >1.2 µM
CC(C)c1c(CO)cn(Cc2ccc(N)cc2)c1Sc1cc(Cl)cc(Cl)c1 ; strain or isolate: IIIB ; cells: MT-4 ; value: 3 µM
CCOC(=O)C1C/C(=C\c2ccc(O)c(O)c2)C(=O)/C(=C/c2ccc(O)c(O)c2)C1 ; cells: MT-4 ; value: >5 µM
COC(=O)CNC(=O)[C@H](C)NC(=O)COc1ccc2ccccc2c1 ; strain or isolate: IIIB ; cells: MT-4 ; value: >79 µg/mL
CCCc1cc(=O)oc2c3c(c4c(c12)OC(C)(C)C=C4)O[C@H](CC)[C@@H](C)C3=O ; strain or isolate: IIIB ; cells: CEM + CEM-SS ; value: >6.8 µM
Cc1ccnc2c1NC(=O)c1cccnc1N2C1CC1 ; strain or isolate: IIIB (BI-RG-587-RS) ; cells: MT-2 ; value: >11.1 µM
CSc1ccn([C@H]2C[C@H](N=[N+]=[N-])[C@@H](CO)O2)c(=O)n1 ; strain or isolate: LAV-Bru ; cells: CEM-C113 + CEM/C113 ; value: 10.6 µM
CC(=O)Oc1ccc(/C=C/C(=O)O[C@@H](C(=O)O)[C@@H](OC(=O)/C=C/c2ccc(OC(C)=O)c(OC(C)=O)c2)C(=O)O)cc1OC(C)=O ; mutations: DS-resistant ; strain or isolate: NL4-3 ; cells: MT-4 ; value: >74 µM
CCOC(=O)c1cn(Cc2cccnc2)c(Sc2cc(Cl)cc(Cl)c2)c1C(C)C ; strain or isolate: IIIB ; cells: MT-4 ; value: >200 µM
CCCN(C)C(=O)Oc1nsnc1-c1c(Cl)ccc(O)c1Cl ; strain or isolate: IIIB ; cells: MT-4 ; value: 0.16 µM
COc1cc(C(=O)N[C@H](C(=O)NCCCC[C@@H](CO)N(CC(C)C)S(=O)(=O)c2ccc(N)cc2)C(c2ccccc2)c2ccccc2)ccc1O ; mutations: PR-M46I V82T I84V L10R L63P ; strain or isolate: 4596 PR-M46I V82T I84V L10R L63P ; cells: MT-4 ; value: <0.023 µM
Cc1ccnc(-c2cc(CN3CCCNCCNCCCNCC3)ccn2)c1 ; strain or isolate: IIIB ; conditions: 4 d ; cells: MT-4 ; value: >1.13 µM
Cc1cn([C@H]2C=C[C@@H](CO)O2)c(=O)[nH]c1=O ; strain or isolate: IIIB ; cells: MT-2 ; value: 2.4 µM
O=C1/C(=C/c2cc(O)c(O)c(O)c2)CN(Cc2ccccc2)C/C1=C\c1cc(O)c(O)c(O)c1 ; cells: MT-4 ; value: 30 µM
C1CNCCNCCCNCCNC1 ; strain or isolate: RF ; cells: MT-4 ; value: 106 µM
CC(C)(C)NC(=O)[C@@H]1CN(Cc2cccnc2)CCN1C[C@@H](O)C[C@@H](Cc1ccccc1)C(=O)N[C@H]1c2ccccc2C[C@H]1O ; strain or isolate: NL4-3 B ; cells: MT-4 ; value: 0.012 µM
COc1ccc2c(c1)C1(c3ccccc3)SCCN1C2=O ; strain or isolate: IIIB ; cells: CEM + CEM-SS ; value: 1.18 µM
CCCN(CCC)C(=O)OCOP(=O)(CO[C@H](C)Cn1cnc2c(N)ncnc21)OCOC(=O)N(CCC)CCC ; strain or isolate: IIIB ; cells: MT-2 ; value: 3 µM
CONc1ccn([C@H]2C[C@H](N=[N+]=[N-])[C@@H](CO)O2)c(=O)n1 ; strain or isolate: LAV-Bru ; cells: CEM-C113 + CEM/C113 ; value: 30 µM
O=c1[nH]cnc2c1ncn2[C@H]1CC[C@@H](CO)O1 ; strain or isolate: IIIB ; cells: MT-2 ; value: 17.1 µM
COC(=O)[C@H](CC(C)C)NC(=O)CNC(=O)COc1ccc2ccccc2c1 ; strain or isolate: IIIB ; cells: MT-4 ; value: >16 µg/mL
CC(C)(C)NC(=O)[C@@H]1C[C@@H]2CCCC[C@@H]2CN1C[C@@H](OC(=O)CCCCOc1ccc(C[C@H](N)C(=O)O)cc1)[C@H](Cc1ccccc1)NC(=O)[C@H](CC(N)=O)NC(=O)c1ccc2ccccc2n1 ; strain or isolate: IIIB ; cells: MT-4 ; value: 0.16 µM
CC(C)c1nc(CN(C)C(=O)N[C@H](C(=O)N[C@@H](Cc2ccccc2)C[C@H](O)[C@H](Cc2ccccc2)NC(=O)OCc2cncs2)C(C)C)cs1 ; strain or isolate: NL4-3 B ; cells: MT-4 ; value: 0.047 µM
CCN1C/C(=C\c2ccc(O)c([N+](=O)[O-])c2)C(=O)/C(=C/c2ccc(O)c([N+](=O)[O-])c2)C1 ; cells: MT-4 ; value: >15 µM
Cc1c(Sc2ccccc2)n(COCCO)c(=O)[nH]c1=O ; strain or isolate: IIIB (BI-RG-587-RS) ; cells: MT-2 ; value: >100 µM
Nc1nc(Cl)nc2c1ncn2[C@@H]1CC[C@H](CO)O1 ; cells: MT-4 ; value: >10 µM
COC(=O)[C@H](C)NP(=O)(OC[C@H]1C/C1=C\n1cnc2c(=O)[nH]c(N)nc21)Oc1ccccc1 ; strain or isolate: LAI ; cells: MT-2 ; value: >100 µM
COC(=O)[C@H](CCSC)NC(=O)COc1ccc2ccc(O[C@H]3O[C@H](C4COC(C)(C)O4)[C@@H]4OC(C)(C)O[C@H]34)cc2c1 ; strain or isolate: IIIB ; cells: MT-4 ; value: >32 µg/mL
CCCCCCCCCCCCCCCCOP(=O)(OCCO[C@@H]1O[C@H](CO)[C@@H](O)[C@H](O)[C@@H]1O)OC[C@H]1O[C@@H](n2cc(C)c(=O)[nH]c2=O)C[C@@H]1N=[N+]=[N-] ; strain or isolate: BRU ; conditions: 22 d ; cells: CEM-C113 + CEM/C113 ; value: >1 µM
CC(C)c1c(CO)cn(Cc2ccncc2)c1Sc1cccc(Cl)c1 ; strain or isolate: IIIB ; cells: MT-4 ; value: 0.1 µM
O=C1/C(=C/c2ccc(O)c(O)c2)CCC/C1=C\c1ccc(O)c(O)c1 ; cells: MT-4 ; value: >7.4 µM
Fc1cccc(F)c1C1OCc2nc3ccccc3n21 ; strain or isolate: IIIB ; cells: MT-4 ; value: 7.9 µM
Cc1ccc(S(=O)(=O)c2c(C(=O)NNCCO)[nH]c3ccc(Cl)cc23)c(C)c1 ; mutations: RT-Y181C ; cells: MT-4 ; value: 14 µM
CNc1nc(C(C)c2c(F)cccc2F)c(C)c(=O)[nH]1 ; strain or isolate: IIIB ; cells: MT-4 ; value: 0.02 µM
CC(C)(C)NC(=O)[C@@H]1CN(Cc2cccnc2)CCN1C[C@@H](O)C[C@@H](Cc1ccccc1)C(=O)N[C@H]1c2ccccc2C[C@H]1OC(=O)CCCCO[C@H]1O[C@H](CO)[C@@H](O)[C@H](O)[C@@H]1O ; strain or isolate: IIIB ; cells: MT-4 ; value: 0.263 µM
Fc1cccc(F)c1[C@H]1SCc2nc3ccccc3n21 ; strain or isolate: NDK ; cells: MT-4 ; value: 0.2 µg/mL
COC(=O)CNC(=O)[C@H](CO)NC(=O)COc1ccc2ccccc2c1 ; strain or isolate: IIIB ; cells: MT-4 ; value: >100 µg/mL
CCCN(C)C(=O)Oc1nsnc1-c1c(Cl)ccc(N)c1Cl ; strain or isolate: IIIB ; cells: CEM ; value: 0.024 µM
Cc1c(OC(=O)CCCCO[C@H]2O[C@H](CO)[C@@H](O)[C@H](O)[C@@H]2O)cccc1C(=O)N[C@@H](CSc1ccccc1)[C@@H](CN1C[C@H]2CCCC[C@H]2C[C@H]1C(=O)NC(C)(C)C)OC(=O)CCCCO[C@H]1O[C@H](CO)[C@@H](O)[C@H](O)[C@@H]1O ; strain or isolate: IIIB ; cells: MT-4 ; value: >>50 µM
COC(=O)[C@H](CCSC)NC(=O)[C@H](CO)NC(=O)COc1ccc2ccccc2c1 ; strain or isolate: IIIB ; cells: MT-4 ; value: >49 µg/mL
Nc1ccn([C@H]2CC[C@@H](CO)O2)c(=O)n1 ; strain or isolate: A-17 (TIBO-RS) ; cells: MT-2 ; value: ~0.07 µM
CCCCNc1nc(Cc2c(F)cccc2F)c(C)c(=O)[nH]1 ; mutations: RT-Y181C ; cells: MT-4 ; value: 0.7 µM
CC(=O)c1ccc(C)cc1NC(C(N)=O)c1c(Cl)cccc1Cl ; strain or isolate: IIIB ; cells: U-937 ; value: 0.026 µM
CC(C)(C)NC(=O)[C@@H]1CSCN1C(=O)[C@@H](O)[C@H](Cc1ccccc1)NC(=O)[C@H](CC(F)(F)F)NC(=O)COc1cccc2cnccc12 ; strain or isolate: IIIB ; cells: MT-4 ; value: 0.008 µg/mL
CC1(C)C2=CC(=O)C(c3ccccc3)C(=O)N2c2ccccc21 ; strain or isolate: RF ; cells: MT-4 ; value: >100 µM
COC(=O)[C@H](CO)NC(=O)[C@H](C)NC(=O)COc1ccc2ccccc2c1 ; strain or isolate: IIIB ; cells: MT-4 ; value: >100 µg/mL
CC(c1cc(=O)[nH]c(NC2CCCCC2)n1)c1c(F)cccc1F ; strain or isolate: IIIB ; cells: MT-4 ; value: 0.022 µM
Nc1nc(Cl)nc2c1ncn2[C@@H]1C[C@H](O)[C@H](CO)O1 ; cells: MT-4 ; value: >10 µM
CC(C)Nc1nc(Cc2c(F)cccc2F)cc(=O)[nH]1 ; strain or isolate: IIIB ; cells: MT-4 ; value: 0.4 µM
Cc1ccc(C(=O)N[C@H](C(=O)NCCCC[C@@H](CO)N(CC(C)C)S(=O)(=O)c2ccc(N)cc2)C(c2ccccc2)c2ccccc2)cn1 ; mutations: PR-M46I V82T I84V L10R L63P ; strain or isolate: 4596 PR-M46I V82T I84V L10R L63P ; cells: MT-4 ; value: 0.034 µM
COC(=O)[C@H](CCSC)NC(=O)[C@H](CCSC)NC(=O)COc1ccc2ccccc2c1 ; strain or isolate: IIIB ; cells: MT-4 ; value: >100 µg/mL
COC(=O)[C@H](C)NP(=O)(OCC1C/C1=C/n1cnc2c(N)ncnc21)Oc1ccccc1 ; strain or isolate: LAI ; cells: MT-2 ; value: 0.0026 µM
COC(=O)[C@@H](NC(=O)CNC(=O)COc1ccc2ccccc2c1)C(C)C ; strain or isolate: IIIB ; cells: MT-4 ; value: >82 µg/mL
COC(=O)[C@H](C)NP(=O)(OC[C@H]1C/C1=C/n1cnc2c(N)nc(N)nc21)Oc1ccccc1 ; strain or isolate: LAI ; cells: MT-2 ; value: 0.034 µM
Cc1c(C(C)c2c(F)cccc2F)nc(NC2CCCCC2)[nH]c1=O ; strain or isolate: IIIB ; cells: MT-4 ; value: 0.026 µM
COc1c(O)ccc(C(=O)N[C@@H](CSc2ccccc2)[C@H](O)CN2C[C@H]3CCCC[C@H]3C[C@H]2C(=O)NC(C)(C)C)c1C ; strain or isolate: RF ; cells: CEM + CEM-SS ; value: 0.1508 µM
CC(C)(C)NC(=O)[C@@H]1C[C@@H]2CCCC[C@@H]2CN1C[C@@H](O)[C@H](Cc1ccccc1)NC(=O)[C@H](CC(N)=O)NC(=O)c1ccc2ccccc2n1 ; strain or isolate: IIIB ; cells: MT-4 ; value: <0.008 µg/mL

6 of the rows above, restated:

smiles	mutations	strain or isolate	conditions	cells	value
CCCN(CCC)C(=O)OCOP(=O)(CO[C@H](C)Cn1cnc2c(N)ncnc21)OCOC(=O)N(CCC)CCC		IIIB		MT-2	3 µM
COC(=O)[C@H](CCSC)NC(=O)COc1ccc2ccc(O[C@H]3O[C@H](C4COC(C)(C)O4)[C@@H]4OC(C)(C)O[C@H]34)cc2c1		IIIB		MT-4	>32 µg/mL
COC(=O)[C@H](C)NP(=O)(OCC1C/C1=C/n1cnc2c(N)ncnc21)Oc1ccccc1		LAI		MT-2	0.0026 µM
CC1(C)C2=CC(=O)C(c3ccccc3)C(=O)N2c2ccccc21		RF		MT-4	>100 µM
Nc1nc(Cl)nc2c1ncn2[C@@H]1CC[C@H](CO)O1				MT-4	>10 µM
CONc1ccn([C@H]2C[C@H](N=[N+]=[N-])[C@@H](CO)O2)c(=O)n1		LAV-Bru		CEM-C113 + CEM/C113	30 µM